One may read the IC50 as the concentration that gives 50% inhibition.

For the test, the target named is recombinant SARS-CoV-2 M^pro (Severe acute respiratory syndrome coronavirus 2 (2019-nCoV) (SARS-CoV-2), UniProt P0DTD1). As to the kind of experiment: Inhibition of SARS-CoV-2 M^pro enzyme activity (fluorescent substrate assay). The class given is biochemical. Particulars: values in nM.

Regarding `O=C(CNC(=O)C1CCCC(F)(F)C1)N[C@H](Cc1ccccc1)C(=O)C(=O)NCc1nccs1` (some centres unmarked), the IC50 worked out at 62.8 nM.
In the case of `COC[C@@H](NC(=O)N1CCC(F)(F)CC1)C(=O)N[C@H](Cc1ccccc1)C(=O)C(=O)NCc1nccs1` it was 66.1 nM.

The values above are taken from patent publication US20250064789A1, “KETOAMIDE DERIVATIVES AND PHARMACEUTICAL USES THEREOF” (priority 2022, published 2025).
